Deep mutational scan of the Zika virus protease

Values reported by Ni et al. 2025 (doi:10.1038/s41467-025-63602-z).

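Pools of virus carrying all single amino acid changes were selected for growth in Huh-7.5 cells. The effect is the change in frequency of a mutant, normalised to wild type, as a mean of three replicate libraries (two for positions 207-308). The aim was to find sites where inhibitor-binding pockets cannot change.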

Chain scanned (Zika virus MR766; NS2B from position 2 to 131, then the start of NS3):
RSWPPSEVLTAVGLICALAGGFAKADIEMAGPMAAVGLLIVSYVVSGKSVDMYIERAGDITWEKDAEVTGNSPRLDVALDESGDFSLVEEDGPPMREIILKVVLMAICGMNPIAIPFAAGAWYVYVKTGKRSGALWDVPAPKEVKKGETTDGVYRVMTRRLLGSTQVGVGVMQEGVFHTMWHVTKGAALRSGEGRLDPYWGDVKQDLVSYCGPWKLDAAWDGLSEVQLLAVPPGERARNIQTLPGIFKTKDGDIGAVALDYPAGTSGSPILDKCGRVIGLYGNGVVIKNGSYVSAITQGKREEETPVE

The number is log2 of the effect relative to wild type; negative values mean reduced growth, higher values better tolerance.
Rows are sites, columns the new residue; wt marks the wild-type residue.

site | G | A | V | L | I | M | F | W | Y | C | P | S | T | N | Q | D | E | K | R | H | *
V124 | -4.02 | -0.63 | wt | -0.15 | -2.23 | -0.98 | -1.00 | 0.22 | -1.38 | -2.42 | -7.13 | -5.77 | -1.22 | -2.13 | -5.75 | -1.91 | -6.21 | -3.80 | -7.16 | -2.14 | -7.23
Y125 | -6.73 | -3.49 | -2.98 | -2.94 | -2.90 | -2.63 | -0.90 | -0.70 | wt | -5.30 | -7.34 | -7.32 | -6.47 | -5.98 | -5.94 | -5.38 | -5.23 | -5.97 | -7.36 | -2.95 | -7.12
V126 | -1.66 | -1.04 | wt | -1.22 | -1.09 | -0.25 | -1.12 | -3.27 | -2.35 | -1.35 | -6.86 | -0.93 | -0.53 | -1.46 | -0.12 | -5.02 | -2.05 | -2.35 | -1.76 | -1.32 | -6.38
K127 | -0.81 | -4.81 | -6.82 | -7.92 | -6.16 | -6.16 | -5.60 | -6.00 | -5.80 | -5.67 | -7.97 | -3.78 | -5.96 | -4.26 | -3.32 | -4.39 | -2.86 | wt | -1.38 | -5.91 | -6.90
T128 | -0.45 | -3.61 | -6.61 | -7.54 | -4.85 | -5.60 | -5.66 | -5.96 | -5.84 | -5.42 | -1.09 | 0.36 | wt | -0.63 | -0.67 | -2.99 | -3.27 | -0.44 | -0.15 | -2.36 | -6.71
G129 | wt | -6.93 | -6.92 | -7.08 | -5.58 | -5.46 | -5.68 | -6.08 | -5.72 | -5.51 | -1.33 | -7.35 | -6.88 | -4.07 | -5.80 | -5.39 | -5.41 | -4.73 | -6.84 | -5.20 | -6.68
K130 | -6.47 | -6.35 | -6.20 | -7.52 | -6.05 | -5.73 | -5.91 | -5.69 | -6.20 | -5.30 | -7.12 | -7.15 | -6.99 | -6.79 | -5.96 | -5.53 | -5.47 | wt | -7.19 | -6.47 | -6.36
R131 | -6.65 | -6.44 | -6.44 | -7.56 | -5.92 | -4.89 | -5.23 | -5.90 | -5.74 | -5.31 | -7.28 | -5.01 | -7.45 | -6.21 | -6.05 | -5.58 | -5.67 | -3.61 | wt | -5.99 | -6.88
S132 | -1.82 | -2.58 | -6.57 | -7.19 | -6.88 | -5.77 | -6.23 | -6.04 | -6.10 | -5.57 | -6.73 | wt | -7.03 | -5.97 | -5.52 | -5.59 | -5.33 | -6.18 | -7.52 | -5.86 | -6.34
G133 | wt | -6.60 | -6.67 | -7.11 | -5.20 | -5.33 | -5.28 | -5.95 | -5.40 | -5.41 | -6.71 | -7.08 | -6.68 | -5.24 | -5.49 | -4.12 | -5.38 | -5.21 | -7.15 | -5.23 | -5.96
A134 | -6.74 | wt | -3.46 | -7.03 | -4.74 | -5.00 | -5.32 | -5.07 | -4.81 | -2.24 | -7.13 | -5.64 | -6.14 | -4.94 | -5.49 | -5.44 | -5.41 | -4.74 | -6.76 | -4.79 | -6.05
L135 | -7.75 | -7.43 | -7.37 | wt | -4.60 | -3.51 | -6.18 | -6.97 | -6.90 | -6.85 | -7.83 | -8.23 | -7.71 | -6.95 | -6.97 | -6.56 | -6.76 | -6.98 | -8.21 | -6.75 | -7.72
W136 | -6.83 | -7.09 | -7.43 | -6.25 | -6.67 | -6.88 | -6.78 | wt | -6.53 | -3.16 | -7.46 | -7.89 | -7.40 | -6.65 | -6.67 | -6.18 | -6.46 | -6.52 | -7.82 | -6.23 | -6.68
D137 | -7.17 | -6.88 | -7.20 | -7.68 | -6.23 | -6.37 | -6.14 | -6.25 | -3.19 | -5.91 | -7.43 | -7.71 | -7.53 | -6.72 | -6.08 | wt | -6.84 | -6.36 | -7.32 | -6.12 | -7.17
V138 | -7.17 | -4.92 | wt | -1.68 | -0.83 | -3.01 | -5.47 | -6.19 | -5.05 | -5.54 | -5.27 | -6.32 | -4.65 | -4.18 | -4.47 | -5.26 | -5.85 | -5.08 | -6.41 | -2.50 | -6.75

An asterisk is a stop codon; stop codons read about -7, near the floor of the assay.
Position 1 still belongs to NS2A. In the paper, -1 or higher counts as tolerated.
The region was split into three libraries (1-103, 104-206, 207-308).
Values above 0 are not proof of better growth: six high scorers were tested one by one, five grew less well than wild type and one about as well.